The exact form of at least one protein or probe is not confirmed.

The data set deals with LiRad51-3 (in 3-4-6 complex) + LiRad51-4 (in 3-4-6 complex) + LiRad51-6 (in 3-4-6 complex). In words: competition EMSA. Conditions: 0-40 nM complex, mixture; 25 mM MOPS pH 7.0, 0.2% Tween-20, 1 mM CaCl2, 2 mM DTT; 25 nM 32P-DNA; 37 C 10 min, then 0.2% glutaraldehyde 15 min; 8% TBE acrylamide gel; recombinant protein; label: 32P; single-stranded DNA. (In general: A gel shift assay detects complexes by their altered migration in electrophoresis.)

Regarding “GGGTGAACCTGCAGGTGGGCAAAGATGTCCTAGCAATGTAATCGTCAAGCTTTATGCCGT [ssDNA of structure competition (JYM925, inferred)]”, the binding result was “binds”.

These data come from PMC4357719, “Roles of Rad51 paralogs for promoting homologous recombination in Leishmania infantum”.
